Amino acid sequences for entries named in this document (tags omitted).
UniProt P62937, whole entry: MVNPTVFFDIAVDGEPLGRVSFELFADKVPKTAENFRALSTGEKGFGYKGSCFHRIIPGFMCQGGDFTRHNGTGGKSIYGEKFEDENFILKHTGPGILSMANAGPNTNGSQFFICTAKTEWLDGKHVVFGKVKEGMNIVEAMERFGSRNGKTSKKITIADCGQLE

According to paper PMC12590632, “Identification and characterization of a nonpeptidic cyclophilin ligand with antiviral activity against feline and porcine α-coronaviruses” (Veterinary Research, 2025):

What was measured:
Human cyclophilin A = Human cyclophilin A (Homo sapiens, UniProt P62937); assay: PPIase enzyme assay (chymotrypsin-coupled); assay type: biochemical; conditions: read-out: IC50 of PPIase, 20 °C, mean ± SD of two or more experiments
[1] = tested on: FIPV (strain 79-1146) in CRFK cells; assay: SMCypI screening for FIPV infection, viral titre by end-point dilution; assay type: cell-based, feline infectious peritonitis virus; conditions: 50 µM SMCypI, MOI 1, 24 h

SMILES	IC50 (Human cyclophilin A)	Inhibition of FIPV titre [1]
COc1ccc(OC)c(C(NC(=O)NCc2ccc(N)cc2)C(=O)N2CCCC2c2cccc3ccsc23)c1 (centres unmarked)	1.5 µM	
CSc1ccccc1C1CCCN1C(=O)C(NC(=O)NCc1ccc(N)cc1)C1CCCCC1 (centres unmarked)		low antiviral potency
CSc1ccccc1C1CCCN1C(=O)C(NC(=O)NCc1ccc(N)cc1)c1ccccc1 (centres unmarked)		low antiviral potency
CSc1ccccc1C1CCCN1C(=O)C(NC(=O)NCc1ccc(N)cn1)c1ccccc1 (centres unmarked)	6.9 µM	
COc1cc(OC)c(C(NC(=O)NCc2ccc(N)cc2)C(=O)N2CCCC2c2ccccc2SC)cc1Br (centres unmarked)		low antiviral potency
CSc1ccccc1C1CCCN1C(=O)C(NC(=O)NCc1cccc2ncccc12)c1ccccc1 (centres unmarked)	> 10 µM	
CCOc1cccc(C(NC(=O)NCc2ccc(N)cc2)C(=O)N2CCCC2c2ccccc2SC)c1 (centres unmarked)	1 µM	
CSc1ccccc1C1CCCN1C(=O)C(NC(=O)NCc1ccc(N)cc1)c1cccs1 (centres unmarked)	> 10 µM	
